Measurements from paper PMC10057394, “Exploring the Antitubercular Activity of Anthranilic Acid Derivatives: From MabA (FabG1) Inhibition to Intrabacterial Acidification” (Pharmaceuticals, 2023).

Tested on: H37Rv
Test: Selection of spontaneous resistance mutants

O=C(Nc1ccc(C#CC2CC2)cc1C(=O)O)c1ccc(Cl)c(Cl)c1 [Compound 16, 5-(2-cyclopropylethynyl)-2-[(3,4-dichlorobenzoyl)amino]benzoic Acid]
outcome of selection of spontaneous resistance mutants (at 2× MIC): bacterial lawn
outcome of selection of spontaneous resistance mutants (at 3× MIC): lack of resistant colonies
